# Data: patent US20220153815A1, “Compounds specific to coronavirus s protein and uses thereof” (published 2022)
# Like-named read-outs stand apart in the source and are kept apart here.
# B1: ADI-55689 (antibody, V domains shown)
# VH: not shown
# VL: not shown
# B2: ADI-56046 (antibody, V domains shown)
# VH: not shown
# VL: not shown
# What was measured:
# [1] = target: SARS-CoV-2 S1; test: BLI; avid
# [2] = target: T1, recombinant prefusion-stabilized SARS-CoV S protein (prefusion S ectodomain) (SARS-CoV, UniProt P59594 14-1195)
# [3] = target: SARS-CoV-2 S1; test: BLI; monovalent
# [4] = target: AVID SARS-CoV-2 S1; test: BLI; avid
# [5] = target: Monovalent SARS-CoV-2 S1; test: BLI; monovalent
# [6] = target: T1, recombinant prefusion-stabilized …; remark: listed apart in the source
Binder,Kd [1] [nM],Kd [2] [nM],Kd [3] [nM],Kd [4] [nM],Kd [5] [nM],Kd [6] [nM]
B1,0.603,0.613,21.2,,,
B2,,,,0.328,3.31,1.03
